According to PMC7900799, “Synthesis, antibiotic structure–activity relationships, and cellulose dissolution studies of new room-temperature ionic liquids derived from lignin” (Biotechnology for Biofuels, 2021):

Experiment: Cellulose dissolution in ILs (gravimetric, light microscopy, FTIR)
Assay type: physicochemical
Conditions: for cellulose concentration at which cellulose precipitation was observed: 100 °C, 20 min incubation, light microscopy

| Structure (SMILES) | cellulose concentration at which cellulose precipitation was observed | ability to dissolve and decrease the crystallinity of cellulose (light microscopy and FTIR, 2 wt% cellulose) |
| --- | --- | --- |
| CC(=O)[O-].CC[N+](C)(CC)Cc1ccc(OC)c(OC)c1 [Compound 9, N-(3,4-Dimethoxybenzyl)-N-ethyl-N-methylethanaminium acetate] | 2 wt% | slightly less effective cellulose dissolution and decrystallization |
| CCC[N+](C)(CCC)Cc1ccc(OC)c(OC)c1 [Compound 10, N-(3,4-Dimethoxybenzyl)-N-methyl-N-propylpropan-1-ammonium acetate] | 2 wt% | – |
